Results of unrelated studies side by side (data: NIAID ChemDB).

Common to all: tests in culture; agent: Staphylococcus aureus

Lines come from different laboratories, so protocols vary.

smiles,strain or isolate,measure,result
Cc1cn(-c2ccc(N3C[C@H](CNc4ccon4)OC3=O)cc2F)cn1,004 (methicillin quinolone-resistant),MIC,0.5 µg/mL
CCCCCCCCCCCCSC[N+](C)(C)CCCCCCCCCCCC,ATCC 6538,MBC,5.38 µM
CS(=O)(=O)N[C@H]1CCN(c2ccc(N3C[C@H](COc4cnsn4)OC3=O)cc2F)C1,122 (novobiocin-resistant),MIC,0.5 µg/mL
CCCCCCCCCCCC[N+](C)(C)COC1CCCC1,ATCC33592,MBC,14.4 µM
CCCNCCCNc1cc2c(cc1F)c(=O)c(C(=O)O)cn2C1CC1,ATCC 6538P,MIC,25 µg/mL
CCCCCCCCOC[N+](C)(C)CCCCCCCC,ATCC33592,MBC,149 µM
Cc1c(NC2CC2)c(F)cc2c(=O)c(C(=O)O)cn(-c3cc(N)c(F)cc3F)c12,W44 (methicillin-resistant),MIC,0.06 µg/mL
COC(CN(C)c1cc2c(cc1F)c(=O)c(C(=O)O)cn2C1CC1)OC,ATCC 6538P,MIC,3.12 µg/mL
Cc1c(NC(C)C)c(F)cc2c(=O)c(C(=O)O)cn(-c3cc(N)c(F)cc3F)c12,SMITH,MIC,0.004 µg/mL
CCCCCCCCCCCC[N+](C)(C)COC(C)CCCCCC,ATCC33592,MBC,3.06 µM
CCN1CCN(C)c2cc3c(=O)c(C(=O)O)cn(C4CC4)c3cc21,ATCC 6538P,MIC,>100 µg/mL
O=C1O[C@@H](CNc2ccon2)CN1c1ccc(-n2ccnc2)c(F)c1,004 (methicillin quinolone-resistant),MIC,0.5 µg/mL
CCOC(CC(C)(C)CNc1cc2c(cc1F)c(=O)c(C(=O)O)cn2C1CC1)OCC,ATCC 6538P,MIC,>100 µg/mL
CCCCCCCCCCCC[N+](C)(C)COCC(C)CC,ATCC33592,MBC,8.57 µM
O=C(O)c1cn(C2CC2)c2cc(N3CCN(CCO)CC3)c(F)cc2c1=O,ATCC 6538P,MIC,3.12 µg/mL
O=C(CO)N[C@H]1CCN(c2ccc(N3C[C@H](COc4ccon4)OC3=O)cc2F)C1,078 (oxford),MIC,4 µg/mL
NCCCNc1cc2c(cc1F)c(=O)c(C(=O)O)cn2C1CC1,ATCC 5278 (methicillin-resistant),MIC,>100 µg/mL
Cc1c(NCCCO)c(F)cc2c(=O)c(C(=O)O)cn(-c3cc(N)c(F)cc3F)c12,W806 (methicillin-resistant),MIC,2 µg/mL

For reference, 2 entries again:

NCCCNc1cc2c(cc1F)c(=O)c(C(=O)O)cn2C1CC1 ; strain or isolate: ATCC 5278 (methicillin-resistant) ; measure: MIC ; result: >100 µg/mL
CCCCCCCCCCCCSC[N+](C)(C)CCCCCCCCCCCC ; strain or isolate: ATCC 6538 ; measure: MBC ; result: 5.38 µM